According to patent publication US20070160981A1 (priority 2005, published 2007):

Tested on: T1, 12-mer FRLKGGAPIKGV with substitution A819N (P1′)
T1 sequence: FRLKGGAPIKGV

## SARS-CoV papain-like protease 2 (SARS-CoV PLP2), residues 1414-1858 of pp1a, N-terminal 6xHis tag
  Cleavage %, 2 h: 62.5%
  Cleavage %, 12 h: 100%
